# Measured values reported in PubChem BioAssay AID1950 (The Scripps Research Institute Molecular Screening Center, 2009).
# This is a selection; strong and weak results do not stand in their true shares. Some salts or complexes appear as unconnected parts, following the source record. Activity calls are given as the source filed them. Rule as the data show it: active = inhibition above about 28%; inactive = the rest.
# Test system: EBNA-1 (Epstein-Barr virus nuclear antigen 1), Human herpesvirus 4
# Assay: EBNA-1 DNA-binding inhibitors, primary screen, biochemical, fluorescence polarization (AID 1950)
# Conditions: at 14.8 µM, stronger effect = higher value
row,Compound,inhibition
1,O=C(OC1CN2CCC1CC2)c1ccc([N+](=O)[O-])cc1 (stereo not drawn),inactive: 2.2%
2,O=C(OCCN1CCN(CCOCc2ccccc2)CC1)C(O)(c1ccccc1)c1ccccc1,inactive: -2.47%
3,COc1ccc2c(c1O)-c1c(O)c(OC)cc3c1[C@H](C2)[N+](C)(C)CC3.O=[N+]([O-])c1cc([N+](=O)[O-])c([O-])c([N+](=O)[O-])c1[O-],inactive: 0.18%
4,CP(=O)(Nc1ccccc1F)Oc1ccccc1 (stereo not drawn),inactive: 3.59%
5,CC(C)c1ccc(OP(C)(=O)Nc2ccc(SC(F)(F)F)cc2)cc1 (stereo not drawn),inactive: -12.7%
6,CCN(CC)CCCOC(=O)C(O)(c1ccccc1)C1CCCCC1 (stereo not drawn),inactive: -3.94%
7,CP(=O)(Nc1ccccc1)Oc1ccc(F)cc1 (stereo not drawn),inactive: -1.52%
8,CCCCCOc1ccc(NP(C)(=O)Oc2ccc(Cl)cc2Cl)cc1 (stereo not drawn),inactive: -3.45%
9,O=[N+]([O-])c1cc([N+](=O)[O-])c(OC2CCCCC2O)c([N+](=O)[O-])c1 (stereo not drawn),inactive: 0.95%
10,CCOC(=O)c1ccc(NP(C)(=O)Oc2ccc(F)cc2)cc1 (stereo not drawn),inactive: 1.27%
11,COc1ccc(OP(C)(=O)Nc2ccc(SC(F)(F)F)cc2)cc1 (stereo not drawn),inactive: 1.29%
12,O=[N+]([O-])c1cc([N+](=O)[O-])c(NCC2CCS(=O)(=O)C2)c([N+](=O)[O-])c1 (stereo not drawn),inactive: -12.9%
13,COc1ccc(OP(C)(=O)Nc2cccc(Br)c2)cc1 (stereo not drawn),inactive: 1.28%
14,CN(C)CCOC(=O)C(O)(c1ccccc1)C1CCCCC1 (stereo not drawn),inactive: -0.46%
15,COc1ccc(NP(C)(=O)Oc2ccccc2OC)cc1 (stereo not drawn),inactive: 8.32%
16,CP(=O)(Nc1ccc2c(c1)OCCO2)Oc1ccccc1 (stereo not drawn),inactive: -1.74%
17,Cc1ccccc1NP(C)(=O)Nc1ccccc1C,inactive: 2.15%
18,CP(=O)(Nc1ccc(SC(F)(F)F)cc1)Oc1ccc(F)cc1 (stereo not drawn),inactive: -1.69%
19,CCOP(C)(=S)SCC(=O)NC(C)(CC)C(=O)O (stereo not drawn),inactive: 4.34%
20,CC(C)(C)c1ccc(OP(C)(=O)O)cc1,inactive: 5.69%
21,COc1ccccc1OP(C)(=O)Nc1ccccc1Br (stereo not drawn),inactive: 10.2%
22,CP(=O)(Nc1ccc(Cl)cc1)Oc1ccc(F)cc1 (stereo not drawn),inactive: 8.01%

row,Compound,inhibition
1,CN(C)C(=O)c1c([N+](=O)[O-])cc([N+](=O)[O-])cc1[N+](=O)[O-],inactive: -0.43%
2,COc1ccc(OP(C)(=O)Nc2ccc(Br)cc2)cc1 (stereo not drawn),inactive: 5.65%
3,CCN(CC)CC(O)COC(=O)C(O)(c1ccccc1)C1CCCCC1 (stereo not drawn),inactive: 2.06%
4,O=C(OCCCN1CCCC1)C(O)(c1ccccc1)C1CCCCC1 (stereo not drawn),inactive: 4.34%
5,COc1ccccc1OP(C)(=O)Nc1c(C)n(C)n(-c2ccccc2)c1=O (stereo not drawn),inactive: 0.04%
6,CCc1ccc(OP(C)(=O)Nc2cccnc2)cc1 (stereo not drawn),inactive: -8.08%
7,CP(=O)(Oc1ccccc1)N1CCOC1=O (stereo not drawn),inactive: -2.53%
8,Nc1ccc2c(ccc3cccnc32)n1.O=[N+]([O-])c1cc([N+](=O)[O-])c(O)c([N+](=O)[O-])c1,inactive: 1.39%
9,CCOC(=O)c1ccc(NP(C)(=O)Oc2ccc(Cl)cc2)cc1 (stereo not drawn),inactive: 5.2%
10,CP(=O)(OC12CC3CC(CC(C3)C1)C2)OC12CC3CC(CC(C3)C1)C2,inactive: 5.26%
11,Cc1nc2ccc3ccccc3c2o1.O=[N+]([O-])c1cc([N+](=O)[O-])c(O)c([N+](=O)[O-])c1,inactive: 8.66%
12,CP(=O)(OCCOc1ccccc1)OCCOc1ccccc1,inactive: -0.58%
13,CP(=O)(Nc1ccc(Cl)cc1Cl)Oc1ccccc1 (stereo not drawn),inactive: -6.92%
14,Cc1cc(C)cc(OP(C)(=O)Nc2cccc(C(F)(F)F)c2)c1 (stereo not drawn),inactive: 0.92%
15,COc1ccccc1OP(C)(=O)Nc1ccc(C)c(C)c1 (stereo not drawn),inactive: -2.05%
16,COc1ccc(OP(C)(=O)Nc2ccccc2Br)cc1 (stereo not drawn),inactive: 1.16%
17,O=[N+]([O-])c1cc([N+](=O)[O-])c(Nc2ccccn2)c([N+](=O)[O-])c1,inactive: -2.7%
18,Cc1c(NP(C)(=O)Oc2ccc(C(C)C)cc2)c(=O)n(-c2ccccc2)n1C (stereo not drawn),inactive: 0.42%
19,COc1ccccc1OP(C)(=O)Nc1ccc(C)cc1C (stereo not drawn),inactive: -2.68%
20,CP(=O)(Nc1ccccn1)Oc1ccccc1 (stereo not drawn),inactive: 2.24%
21,CCc1ccc(OP(C)(=O)O)cc1,inactive: 1.37%
22,COc1ccccc1OP(C)(=O)Nc1ccc(Br)cc1 (stereo not drawn),inactive: -15.4%

row,Compound,inhibition
1,COc1ccc(OP(C)(=O)Nc2ccccn2)cc1 (stereo not drawn),inactive: -2.59%
2,CN(C)CCOC(=O)C(O)(c1ccccc1)C1CCCC1 (stereo not drawn),inactive: 6.09%
3,CCN(CC)CCCOC(=O)C(O)(c1ccccc1)c1ccccc1,inactive: -3.3%
4,Cc1ccc(NP(C)(=O)Oc2ccccc2)c(C)c1 (stereo not drawn),inactive: 5.02%
5,COc1ccccc1OP(C)(=O)Nc1ccc(C)cc1 (stereo not drawn),inactive: 6.71%
6,CCOC(=O)c1ccc(NP(C)(=O)Oc2ccccc2)cc1 (stereo not drawn),inactive: 0.99%
7,Cc1cc(C)cc(OP(C)(N)=O)c1 (stereo not drawn),inactive: -5.47%
8,COc1ccc(OP(C)(=O)Nc2cccc(F)c2)cc1 (stereo not drawn),inactive: -4.95%
9,COc1ccccc1OP(C)(=O)Nc1cc(Cl)ccc1C (stereo not drawn),inactive: 3.91%
10,O=[N+]([O-])c1cc([N+](=O)[O-])c(Nc2cccnc2)c([N+](=O)[O-])c1,inactive: 4.35%
11,O=[N+]([O-])c1ccc2c(c1)C=Nc1ccccc1O2,inactive: 9.68%
12,Cc1cccc(C)c1OP(C)(N)=O (stereo not drawn),inactive: -6.32%
13,CC(C)(C)c1ccc(OP(C)(=O)Nc2ccc(SC(F)(F)F)cc2)cc1 (stereo not drawn),inactive: -0.89%
14,CP(=S)(Nn1cnnc1)Oc1ccccc1 (stereo not drawn),inactive: 2.15%
15,CP(=O)(Nc1ccccc1Br)Oc1ccccc1 (stereo not drawn),inactive: -8.72%
16,COc1ccccc1OP(C)(=O)Nc1ccccc1 (stereo not drawn),inactive: 1.03%
17,CCOC(=O)c1ccc(NP(C)(=O)Oc2ccc(OC)cc2)cc1 (stereo not drawn),inactive: -10.1%
18,O=[N+]([O-])c1cc([N+](=O)[O-])c(O)c([N+](=O)[O-])c1.c1ccc(Oc2ccncc2)cc1,inactive: -12.1%
19,CCOP(C)(=S)SCC(=O)NC(C)C(=O)O (stereo not drawn),inactive: -4.12%
20,CP(=O)(Nc1ccccn1)Oc1ccc(Cl)cc1 (stereo not drawn),inactive: 5.48%
21,CP(=O)(Oc1ccccc1)OC(c1ccccc1)C(F)(F)F (stereo not drawn),inactive: 1.41%
22,Cc1cccc(C)c1OP(C)(=O)Nc1ccc(SC(F)(F)F)cc1 (stereo not drawn),inactive: -6.36%

row,Compound,inhibition
1,CP(=O)(Nc1ccc(SC(F)(F)F)cc1)Oc1ccc(Cl)cc1 (stereo not drawn),inactive: -3.73%
2,Cc1cc(C)cc(OP(C)(=O)Nc2ccc(SC(F)(F)F)cc2)c1 (stereo not drawn),inactive: 5.34%
3,CCc1ccc(OP(C)(=O)N2CCN(c3ccc([N+](=O)[O-])cc3)CC2)cc1 (stereo not drawn),inactive: 5.23%
4,CP(=O)(NC(=O)Nc1ccccc1)Oc1ccccc1 (stereo not drawn),inactive: 2.56%
5,O=[N+]([O-])c1cc([N+](=O)[O-])c(-c2cnn(-c3ccccc3)c2)c([N+](=O)[O-])c1,inactive: -11%
6,Cc1nc2ccc3ccccc3c2s1.O=[N+]([O-])c1cc([N+](=O)[O-])c(O)c([N+](=O)[O-])c1,inactive: -9.29%
7,O=[N+]([O-])c1cc([N+](=O)[O-])c(-n2nnc3ccccc32)c([N+](=O)[O-])c1,inactive: 12.9%
8,COc1ccccc1OP(C)(=O)Nc1c(C)cccc1C (stereo not drawn),inactive: 14.7%
9,CN1CCCCC1COC(=O)C1(O)c2ccccc2CCc2ccccc21 (stereo not drawn),inactive: -5.95%
10,CP(=O)(Nc1ccc(SC(F)(F)F)cc1)Oc1ccccc1 (stereo not drawn),inactive: 7.02%
11,CCCOc1ccc(NP(C)(=O)Oc2ccc(Cl)cc2)cc1 (stereo not drawn),inactive: 6.43%
12,CCOC(=O)C(CC)C1=NC(C)(C)Cc2ccccc21.O=[N+]([O-])c1cc([N+](=O)[O-])c(O)c([N+](=O)[O-])c1 (stereo not drawn),inactive: -1.07%
13,O=[N+]([O-])c1cc([N+](=O)[O-])c(Nc2nnnn2CCO)c([N+](=O)[O-])c1,inactive: 0.76%
14,CC1=C2N=C(C=C3N=C(C(C)=C4[N-][C@@](C)([C@@H]5N=C1[C@](C)(CCC(=O)NC[C@@H](C)OP(=O)([O-])O[C@H]1[C@@H](O)[C@@H](n6cnc7cc(C)c(C)cc76)O[C@@H]1CO)[C@H]5CC(N)=O)[C@@](C)(CC(N)=O)[C@@H]4CCC(N)=O)[C@@](C)(CC(N)=O)[C@@H]3CCC(N)=O)C(C)(C)[C@@H]2CCC(N)=O.[C-]#N.[Co+3],inactive: -6.92%
15,CC1=NCCc2c1[nH]c1ccccc21.O=[N+]([O-])c1cc([N+](=O)[O-])c(O)c([N+](=O)[O-])c1,inactive: 10.6%
16,O=C(O)c1cccc(Nc2c([N+](=O)[O-])cc([N+](=O)[O-])cc2[N+](=O)[O-])c1,inactive: -19%
17,Cc1ccc(C)c(NP(C)(=O)Oc2ccccc2)c1 (stereo not drawn),inactive: -2.53%
18,CP(=O)(Nc1cccc(Br)c1)Oc1ccccc1 (stereo not drawn),inactive: 11.8%
19,Cc1cc(C)cc(OP(C)(=O)Nc2ccccn2)c1 (stereo not drawn),inactive: 3.21%
20,COc1ccccc1OP(C)(=O)Nc1cccc(Br)c1 (stereo not drawn),inactive: 3.25%
21,CCOC(=O)c1ccc(NP(C)(=O)Oc2cc(C)cc(C)c2)cc1 (stereo not drawn),inactive: -1.74%
22,Cc1cc(C)cc(OP(C)(=O)Nc2ccc(C)cc2C)c1 (stereo not drawn),inactive: -6.5%
